Laboratory results taken from the supplement of paper PMC9931576.
Numbering of substitutions follows the chain as printed. Human monoclonal antibodies against the spike receptor-binding domain (heavy:light variable regions). IC50 against pseudoviruses bearing the spike of naturally observed variants; lower = stronger; >10 µg/ml means not reached at the top dose. No active / inactive call. The stated detection limit is 0.0005 µg/ml; values near or below 0.001 µg/ml lie at the floor of the assay.

B1: BD55-931 (protein)
chain 1: EEQLVESGGGLVQPGRSLRLSCVASGFSFDDYAMHWVRQAPGKGLEWVSGISWNSGIIGYADSVKGRFTISRDNAKNSLYLQMRSLRTEDTALYYCANNLEAAAGTRAFDIWGHGTMVTVSS
chain 2: DIVMTQSPDSLAVSLGERATIKCKSSQSVLYSSNNKNYLAWYQQKPGQPPKVYIYWASTRALGVPDRFSGSGSGTEFTLTISSLQAEDVAVYYCQQYHTTPYTFGQGTKLEIK
B2: BD55-947 (protein)
chain 1: EVQLVESGGGVVQPGGSLRLSCAASGFTFDNYAIHWVRQAPGRGLEWVSLISGDGTSTYYADSVKGRFTISRDNSKNSLYMQMDSLRTEDTALYYCAKDRDGGLLWGQGTLVTVSS
chain 2: SYELTQPPSVSVSPGQTARITCSGDALPNQYAYWYQQKPGQAPVLVIYKDSERPSGIPERFSGSSSGTTVTLTISGVQAEDEADYYCQSADSSGPYFYVFGTGTKVTVL
B3: XG2v-098 (protein)
chain 1: EVQLVESGGGLVQPGGSLRLSCAASGFTVSRNYMSWVRQAPGKGLEWVSLIYSGGSTDYADSVQGRFTISRDNSKNTLYLQMNSLRAEDTAVYYCARDLQFYGMDVWGQGTTVTVSS
chain 2: DIQMTQSPSSVSASVGDRVTITCRASQGISSWLAWYQQKPGKAPKLLIYAASTLQSGVPLRFSGSGSGTDFTLTISSLQPEDFAAYYCQQANSFPFTFGPGTKVDIK
B4: XGv-014 (protein)
chain 1: EVQLVESGGGLVRPGRSLTLSCAASGFMFDDYAMHWVRQPPGKGLEWVSGISWNSASVGYADSVKGRFTISRDNAKNSLYLRMNSLRPEDTALYYCAKLGVTTAMVKSYFDHWGQGTLVTVSS
chain 2: EIVMTQSPATLSLSPGERATLSCRASQSVSGNLAWYQQRPGQVPRLLIYGTSTRATGIPARFSGSGSGTEFTLTISSLQSEDFAVYYCQQYNNWPPGVTFGPGTKVDIK
B5: XGv-017 (protein)
chain 1: EVQLVESGGGLIQPGGSLRLSCAASGVTVSSNYMNWVRQAPGKGLEWVSVIYPGGTRDYSDSVKGRFTISRDSSKNTLYLQMNSLRDEDTAFYYCARDLVVYGMDVWGQGTTVTVTS
chain 2: DIQLTQSPSSLSASVGDRVTITCRASQGISSYLAWYQQKPGKAPKLLIYAASTLQSGVPSRFSGSGSGTDFTLTISSLQPEDFAAYYCQLLNTYPLTFGGGTKVEIK
B6: XGv-018 (protein)
chain 1: QVQLVESGGGVVQPGRSLRLSCAASGFTFSTYGMHWVRQAPGKGLEWVAVILNDGSGKLYADSVKGRFTISRDNSKNTLYLQMSSLRAEDTAVYFCARDQGELVTYFDYWGQGTLVTVSS
chain 2: DIQMTQSPSSLSASVGDRVTITCRASQSISRYLNWYQHKPGKAPKLLIYTTSNLQSGVPSRFSGSGSGTDFTLTISSLHPEDFATYYCQQSYNTPSWTFGQGTKVEIK
B7: XGv-030 (protein)
chain 1: EVQLVESGGGLVQPGGSLRLSCAASGFSFSTYSLNWVRQAPGKGLEWVSYISSSSITIYYAHSVKGRFTISRDDAKNSLYLQVNNLRDEDTAVYYCARVLGFSDYVWGSYQRGLYGMDVWGQGTTVSVSS
chain 2: QSALTQPASVSGSPGQSIAISCTGTSSDVGGYDFVSWYQQHPGKAPKLLIYDVTNRPSGISNRFSGSKSGNTASLTISGLQTEDEADYYCSSFTSSNTLPFVFGTGTTVTVL
B8: XGv-038 (protein)
chain 1: QVQLVESGGGVVQPGRSLRLSCAASGFTFNNYGIHWVRQAPGKGLEWVAVIWYDGTNKYYADSVKGRFTISRDNSKNTVYLQMNSLRAEDTAVYYCARDYEITMAAPDYWGQGTLVTVSS
chain 2: DVVMTQSPLSLPVTLEQPASISCRSSQSLVSSDGNTYLNWFQQRPGQSPRRLIYKVSNRDSGVPDRFSGSGSGTDFTLKINRVEAEDVGIYYCMQGSHWPPTFGGGTKVEIK
B9: XGv-039 (protein)
chain 1: EVQLVESGGALVQPGGSLRLSCAVSGFTFSTYDMHWVRQTTGGRLEWVSTIGTAGDTYYSDSVKGRFTISRENAKNSLYLQMNSLRAGDTAVYYCARGGNGYHWYFDLWGRGTLVSVSS
chain 2: DIQMTQSPSSLSASVGDRVTITCRASQSISSYLNWYQQKPGKAPKLLIYASSTLQSGVPSRFSGSGSGTDFTLTISSLQPEDFATYYCQQSYTMPPVTFGQGTRLDIK
B10: XGv-050 (protein)
chain 1: EVQLVESGGGLVQPGGSLRLSCAASGFTFSRYDMHWVRQAAGKGLEWVSGIGAPGDTYYAGSVKGRFTISRENAKTSLHLQMNNLRAGDTAVYYCTRGWFGENYMDVWGKGTTVTVSS
chain 2: EIVLTQSPATLSLSPGERATLSCRASQSVSNHLAWFQQKPGQSPRLLIYDASNRATGIPARFSGSGSGTDFTLTISSLEPEDFAIYYCHQRSNWPTFGQGTKVEIK
B11: XGv-055 (protein)
chain 1: QVQLVQSGAEVKKPGSSVKVSCKASGGTFSSYALSWVRQAPGQGLEWMGGIIPIFGTTNYAQKFQGRVTITADESSSTAYMELSSLRSEDTAVYYCARLDGYSFGHNRYYQDGMDDWGQGTTVTVSS
chain 2: DIQMTQSPSSLSASVGDRVTITCRASQGIRNDLGWYQQKPGKAPKCLIYAASTLQSGVPSRFSGSGSGTEFTLTISSLQPEDFATYYCLQQNIYPRTFGQGTKVEIK
B12: XGv-056 (protein)
chain 1: EVQLVESGGGLVQPGGSLRLSCAAFGFSFSIYDMHWVRQTTGKGLEWVSGIGTTGDTYYPDSVKGRFTISREDAKNSLYFQMNSLRAGDTAVYYCARVGRGFGEIGYDFWGQGTLVTVSS
chain 2: SYVLTQPPSVSVAPGKTARITCGGNNIGSKSVHWYQQKPGQAPVLVIYYNSDRPSGIPERFSGSNSGNTATLTISGVEAGDEADYYCQVWNSRSDHAVVFGGGTRL
B13: XGv-057 (protein)
chain 1: B12 chain 1 with F25S, F80L
chain 2: SYVLTQPPSVSVAPGKTARITCGGNNIGSKSVHWYQQKPGQAPVLVIYYNSDRPSGIPERFSGSNSGNTATLTISGVEAGDEADYYCQVWNSRSDHAVVFGGGTRLTVL

Biological target: SARS-CoV-2 Omicron BA.1 spike pseudovirus
Experiment: pseudovirus neutralization IC50; higher = weaker neutralization
Protocol: (§1)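 Single-round VSV luciferase pseudovirus mixed with antibody dilutions for 1 h and put on Huh-7 cells for about a day; IC50 from the dose curve.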

B1 and B2 cannot be ordered by “pseudovirus neutralization IC50” value: greater than 10 µg/mL for the first, greater than 10 µg/mL for the second.

B3 and B4 cannot be ordered by “pseudovirus neutralization IC50” value: greater than 10 µg/mL for the first, greater than 10 µg/mL for the second.

Compared with B5, B6 is 3.5-fold higher in “pseudovirus neutralization IC50” value: 1.88 µg/mL for the first, 6.5 µg/mL for the second.

B7 and B8 are within 1.5-fold of each other in “pseudovirus neutralization IC50” value: 1.33 µg/mL for the first, 1.64 µg/mL for the second.

Going from B9 to B10, the “pseudovirus neutralization IC50” value falls from greater than 10 µg/mL to 2.54 µg/mL.

First: B11
Second: B12
The “pseudovirus neutralization IC50” value of the first is lower: 0.0392 µg/mL for the first, greater than 10 µg/mL for the second.

In the case of B13, the “pseudovirus neutralization IC50” value is reported as greater than 10 µg/mL.

Biological target: SARS-CoV-2 Omicron BA.2 spike pseudovirus
Experiment: as above
Protocol: as §1

B1 and B2 cannot be ordered by “pseudovirus neutralization IC50” value: greater than 10 µg/mL for the first, greater than 10 µg/mL for the second.

First: B3
Second: B4
The “pseudovirus neutralization IC50” value of the first is higher: greater than 10 µg/mL for the first, 8.91 µg/mL for the second.

Compared with B5, B6 is 1.7-fold lower in “pseudovirus neutralization IC50” value: 8.83 µg/mL for the first, 5.3 µg/mL for the second.

B7 and B8 are within 1.5-fold of each other in “pseudovirus neutralization IC50” value: 1.33 µg/mL for the first, 1.48 µg/mL for the second.

Going from B9 to B10, the “pseudovirus neutralization IC50” value falls from greater than 10 µg/mL to 3.5 µg/mL.

Compared with B11, B12 is higher in “pseudovirus neutralization IC50” value: 0.00261 µg/mL for the first, greater than 10 µg/mL for the second.

For B13, the “pseudovirus neutralization IC50” value was 3.26 µg/mL.

Biological target: SARS-CoV-2 Omicron BA.2.75 spike pseudovirus
Experiment: as above
Protocol: as §1

B1 and B2 cannot be ordered by “pseudovirus neutralization IC50” value: greater than 10 µg/mL for the first, greater than 10 µg/mL for the second.

B3 and B4 cannot be ordered by “pseudovirus neutralization IC50” value: greater than 10 µg/mL for the first, greater than 10 µg/mL for the second.

Going from B5 to B6, the “pseudovirus neutralization IC50” value falls from greater than 10 µg/mL to 5.35 µg/mL.

B7 and B8 are within 1.5-fold of each other in “pseudovirus neutralization IC50” value: 1.77 µg/mL for the first, 1.2 µg/mL for the second.

Going from B9 to B10, the “pseudovirus neutralization IC50” value falls from greater than 10 µg/mL to 0.0708 µg/mL.

Going from B11 to B12, the “pseudovirus neutralization IC50” value rises from 0.0241 µg/mL to greater than 10 µg/mL.

B13 was tested, and the “pseudovirus neutralization IC50” value was greater than 10 µg/mL.

Biological target: SARS-CoV-2 Omicron BA.5 spike pseudovirus
Experiment: as above
Protocol: as §1

B1 and B2 cannot be ordered by “pseudovirus neutralization IC50” value: greater than 10 µg/mL for the first, greater than 10 µg/mL for the second.

B3 and B4 cannot be ordered by “pseudovirus neutralization IC50” value: greater than 10 µg/mL for the first, greater than 10 µg/mL for the second.

Compared with B5, B6 is lower in “pseudovirus neutralization IC50” value: greater than 10 µg/mL for the first, 4.12 µg/mL for the second.

B7 and B8 are within 1.5-fold of each other in “pseudovirus neutralization IC50” value: 1.77 µg/mL for the first, 2.52 µg/mL for the second.

B9 and B10 cannot be ordered by “pseudovirus neutralization IC50” value: greater than 10 µg/mL for the first, greater than 10 µg/mL for the second.

Compared with B11, B12 is higher in “pseudovirus neutralization IC50” value: 2.66 µg/mL for the first, greater than 10 µg/mL for the second.

In the case of B13, the “pseudovirus neutralization IC50” value is reported as greater than 10 µg/mL.

Biological target: SARS-CoV-2 Omicron BQ.1.1 spike pseudovirus
Experiment: as above
Protocol: as §1

B1 and B2 cannot be ordered by “pseudovirus neutralization IC50” value: greater than 10 µg/mL for the first, greater than 10 µg/mL for the second.

B3 and B4 cannot be ordered by “pseudovirus neutralization IC50” value: greater than 10 µg/mL for the first, greater than 10 µg/mL for the second.

Going from B5 to B6, the “pseudovirus neutralization IC50” value falls from greater than 10 µg/mL to 4.85 µg/mL.

B8 and B9 cannot be ordered by “pseudovirus neutralization IC50” value: greater than 10 µg/mL for the first, greater than 10 µg/mL for the second.

B10 and B11 cannot be ordered by “pseudovirus neutralization IC50” value: greater than 10 µg/mL for the first, greater than 10 µg/mL for the second.

B12 and B13 cannot be ordered by “pseudovirus neutralization IC50” value: greater than 10 µg/mL for the first, greater than 10 µg/mL for the second.

Biological target: SARS-CoV-2 Omicron XBB spike pseudovirus
Experiment: as above
Protocol: as §1

B1 and B2 cannot be ordered by “pseudovirus neutralization IC50” value: greater than 10 µg/mL for the first, greater than 10 µg/mL for the second.

B3 and B4 cannot be ordered by “pseudovirus neutralization IC50” value: greater than 10 µg/mL for the first, greater than 10 µg/mL for the second.

Going from B5 to B6, the “pseudovirus neutralization IC50” value falls from greater than 10 µg/mL to 3.71 µg/mL.

B8 and B9 cannot be ordered by “pseudovirus neutralization IC50” value: greater than 10 µg/mL for the first, greater than 10 µg/mL for the second.

B10 and B11 cannot be ordered by “pseudovirus neutralization IC50” value: greater than 10 µg/mL for the first, greater than 10 µg/mL for the second.

B12 and B13 cannot be ordered by “pseudovirus neutralization IC50” value: greater than 10 µg/mL for the first, greater than 10 µg/mL for the second.

Biological target: SARS-CoV-2 early D614G spike pseudovirus
Experiment: as above
Protocol: as §1

B1 and B2 cannot be ordered by “pseudovirus neutralization IC50” value: greater than 10 µg/mL for the first, greater than 10 µg/mL for the second.

First: B3
Second: B4
The “pseudovirus neutralization IC50” value of the first is 100-fold lower: 0.0935 µg/mL for the first, 9.53 µg/mL for the second.

Going from B5 to B6, the “pseudovirus neutralization IC50” value rises from 0.0279 µg/mL to 1.37 µg/mL (49-fold).

First: B7
Second: B8
The “pseudovirus neutralization IC50” value of the first is 1.8-fold higher: 4.59 µg/mL for the first, 2.52 µg/mL for the second.

Compared with B9, B10 is lower in “pseudovirus neutralization IC50” value: greater than 10 µg/mL for the first, 0.00917 µg/mL for the second.

First: B11
Second: B12
The “pseudovirus neutralization IC50” value of the first is 46-fold lower: 0.0169 µg/mL for the first, 0.769 µg/mL for the second.

With B13 the “pseudovirus neutralization IC50” value was 0.465 µg/mL.
